What was measured:
Assay in all cases: cell-based or functional assay
[1] = target: NR2B
[2] = target: α4β2 nicotinic receptor
[3] = target: TRPA1
[4] = target: Cav2.1
[5] = target: Kv1.3
[6] = target: Cav2.2
[7] = target: T1, hERG, Q12809
T1 chain: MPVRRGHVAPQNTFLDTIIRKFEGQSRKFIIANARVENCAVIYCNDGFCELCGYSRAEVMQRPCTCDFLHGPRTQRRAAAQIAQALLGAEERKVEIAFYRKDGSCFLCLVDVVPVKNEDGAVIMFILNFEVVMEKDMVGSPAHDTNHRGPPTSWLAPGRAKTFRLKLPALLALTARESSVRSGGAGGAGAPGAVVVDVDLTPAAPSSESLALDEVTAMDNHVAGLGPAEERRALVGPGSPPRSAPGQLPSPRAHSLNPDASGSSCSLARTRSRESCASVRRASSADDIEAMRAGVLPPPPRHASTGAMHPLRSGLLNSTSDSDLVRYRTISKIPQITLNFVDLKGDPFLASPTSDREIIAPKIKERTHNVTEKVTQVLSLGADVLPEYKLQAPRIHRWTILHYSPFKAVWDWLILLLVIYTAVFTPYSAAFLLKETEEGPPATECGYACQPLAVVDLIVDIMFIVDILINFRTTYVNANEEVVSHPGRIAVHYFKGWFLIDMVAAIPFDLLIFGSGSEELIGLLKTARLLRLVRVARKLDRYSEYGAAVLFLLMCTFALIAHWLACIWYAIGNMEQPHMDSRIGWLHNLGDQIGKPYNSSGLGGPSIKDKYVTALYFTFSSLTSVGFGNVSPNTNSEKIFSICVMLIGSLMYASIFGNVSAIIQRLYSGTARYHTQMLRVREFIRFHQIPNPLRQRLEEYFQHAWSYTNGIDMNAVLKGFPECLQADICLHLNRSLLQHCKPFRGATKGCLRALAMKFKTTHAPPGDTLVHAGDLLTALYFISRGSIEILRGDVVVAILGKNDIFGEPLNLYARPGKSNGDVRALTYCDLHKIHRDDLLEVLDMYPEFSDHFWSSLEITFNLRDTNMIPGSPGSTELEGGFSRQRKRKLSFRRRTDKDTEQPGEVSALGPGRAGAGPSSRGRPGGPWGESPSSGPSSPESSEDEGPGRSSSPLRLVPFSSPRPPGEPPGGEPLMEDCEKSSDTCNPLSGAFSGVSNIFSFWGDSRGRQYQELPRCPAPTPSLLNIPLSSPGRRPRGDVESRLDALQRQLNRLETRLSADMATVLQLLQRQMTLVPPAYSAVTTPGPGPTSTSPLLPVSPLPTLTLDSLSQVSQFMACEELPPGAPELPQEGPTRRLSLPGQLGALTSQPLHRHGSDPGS

[8] = target: Nav1.7
[9] = target: Kir2.1
[10] = target: TRPV1
[11] = target: 5HT3a
[12] = target: GABA
[13] = target: Kv2.1
[14] = target: α3β4 nicotinic receptor
[15] = target: NR2A
[16] = target: Kv1.2
[17] = target: Kv1.1

Row | Binder | % activity at 0.2 µM [1] [%] | % activity at 20 µM [2] [%] | % activity at 0.2 µM [3] [%] | % activity at 20 µM [3] [%] | % activity at 20 µM [4] [%] | % activity at 20 µM [5] [%] | % activity at 0.2 µM [6] [%] | % activity at 20 µM [6] [%] | % activity at 20 µM [7] [%] | % activity at 0.2 µM [9] [%] | % activity at 20 µM [1] [%] | % activity at 0.2 µM [10] [%] | % activity at 20 µM [10] [%] | % activity at 0.2 µM [2] [%] | % activity at 0.2 µM [11] [%] | % activity at 20 µM [11] [%] | % activity at 0.2 µM [12] [%] | % activity at 20 µM [12] [%] | % activity at 0.2 µM [4] [%] | % activity at 0.2 µM [13] [%] | also measured
1 | GSRPTDIKCSASYQCFPVCKSRFGKTNGRCVNGLCDCF (modifications not checked) [SEQ ID NO: 17] | 90 | 78 | 176 | 129 | 90 | 6 | 117 | 100 | 8 |  |  |  |  |  |  |  |  |  |  |  | % activity at 0.2 µM (TP1) [8]: 66%; % activity at 0.2 µM (TP2) [8]: 61%
2 | GSSDYCSNDFCFFSCRRDRCARGDCENGKCVCKNCHLN (modifications not checked) [SEQ ID NO: 22] | 94 | 83 | 90 | 128 | 99 | 51 | 130 | 86 | 79 | 94 | 97 | 102 | 67 | 92 | 77 | 95 | 99 | 124 | 98 | 110 | % activity at 20 µM [9]: 97%; % activity at 20 µM [13]: 93%; % activity at 0.2 µM [14]: 98%; % activity at 20 µM [14]: 92%; % activity at 0.2 µM [15]: 107%; % activity at 20 µM [15]: 129%; % activity at 0.2 µM [5]: 100%; % activity at 0.2 µM [16]: 82%; % activity at 20 µM [16]: 34%; % activity at 0.2 µM [17]: 83%; % activity at 20 µM [17]: 97%; % activity at 0.2 µM [7]: 84%
3 | GSSCAKPGEMCMRIKCCDGQCGCNRGTGRCFCK (modifications not checked) [SEQ ID NO: 24] | 102 | 88 | 132 | 107 | 121 | 73 | 120 | 102 | 78 | 104 | 92 | 131 | 102 | 97 | 85 | 84 | 96 | 114 | 92 | 91 | % activity at 20 µM [9]: 90%; % activity at 0.2 µM [14]: 101%; % activity at 20 µM [14]: 87%; % activity at 0.2 µM [15]: 102%; % activity at 20 µM [15]: 100%; % activity at 0.2 µM [5]: 94%; % activity at 0.2 µM [16]: 74%; % activity at 20 µM [16]: 83%; % activity at 0.2 µM [17]: 65%; % activity at 20 µM [17]: 69%; % activity at 0.2 µM [7]: 88%
4 | GSVFINVKCRGSPECLPKCKEAIGKSAGKCMNGKCKCYP (modifications not checked) [SEQ ID NO: 29] | 101 | 101 | 89 | 109 | 111 | 0 | 116 | 100 | 78 | 103 | 82 | 109 | 86 | 108 | 122 | 91 | 123 | 104 | 100 | 91 | % activity at 20 µM [13]: 121%; % activity at 0.2 µM [14]: 108%; % activity at 20 µM [14]: 98%; % activity at 0.2 µM [15]: 93%; % activity at 20 µM [15]: 87%; % activity at 0.2 µM [5]: 21%; % activity at 0.2 µM [16]: 77%; % activity at 20 µM [16]: 42%; % activity at 20 µM [17]: 64%; % activity at 0.2 µM [7]: 95%
5 | GSGIGDPVTCLKSGAICHPVFCPRRYKQIGTCGLPGTKCCKKP (modifications not checked) [SEQ ID NO: 38] | 83 | 88 | 138 | 108 | 93 | 31 | 117 | 89 | 71 | 88 | 88 | 98 | 76 | 107 | 97 | 98 | 121 | 112 | 95 | 100 | % activity at 20 µM [9]: 126%; % activity at 20 µM [13]: 125%; % activity at 0.2 µM [14]: 99%; % activity at 20 µM [14]: 92%; % activity at 0.2 µM [15]: 100%; % activity at 20 µM [15]: 90%; % activity at 0.2 µM [5]: 101%; % activity at 0.2 µM [16]: 100%; % activity at 20 µM [16]: 84%; % activity at 0.2 µM [17]: 97%; % activity at 20 µM [17]: 73%; % activity at 0.2 µM [7]: 86%
6 | GSDCVRFWGKCSQTSDCCPHLACKSKWPRNICVWDGSVG (modifications not checked) [SEQ ID NO: 7] | 117 | 84 | 151 | 85 | -6 | 74 | 87 | -2 | 1 | 103 | 53 | 118 | 73 | 97 | 98 | 84 | 118 | 121 | 118 | 105 | % activity at 20 µM [9]: 101%; % activity at 20 µM [13]: 65%; % activity at 0.2 µM [14]: 104%; % activity at 20 µM [14]: 87%; % activity at 0.2 µM [15]: 107%; % activity at 20 µM [15]: 65%; % activity at 0.2 µM [5]: 92%; % activity at 0.2 µM [16]: 111%; % activity at 20 µM [16]: 68%; % activity at 0.2 µM [17]: 92%; % activity at 20 µM [17]: 102%; % activity at 0.2 µM [7]: 95%
7 | GSGDCLPHLKRCKENNDCCSKKCKRRGANPEKRCR (modifications not checked) [SEQ ID NO: 11] | 103 | 88 | 100 |  | 110 | 87 | 100 | 103 | 99 | 107 | 78 | 100 | 100 | 111 | 73 | 85 | 96 | 105 | 104 | 121 | % activity at 20 µM [9]: 97%; % activity at 20 µM [13]: 110%; % activity at 0.2 µM [14]: 95%; % activity at 20 µM [14]: 96%; % activity at 0.2 µM [15]: 103%; % activity at 20 µM [15]: 106%; % activity at 0.2 µM [5]: 101%; % activity at 0.2 µM [16]: 103%; % activity at 20 µM [16]: 46%; % activity at 0.2 µM [17]: 99%; % activity at 20 µM [17]: 55%; % activity at 0.2 µM [7]: 97%

Source: patent US20200262877A1, “ION CHANNEL-BINDING PEPTIDES AND METHODS OF USE THEREOF” (priority 2017, published 2020)
